A mixed list of measured activities; the numbers were collected in NIAID ChemDB.

All rows: tests in culture; species: Herpes simplex virus 1; read-out: inhibition

Rows are shuffled and stem from different studies.

compound,read by,tested at,strain or isolate,cells,result
Oc1cc(O)c2c(c1)O[C@H](c1cc(O)c(O)c(O)c1)[C@@H](O)C2,MTT,200 µM,17 syn +,VERO,32%
Nn1c(Nc2ccc(Cl)cc2)nc2sc3c(c2c1=O)CCCC3,plaque count,0.3 µg/mL,,VERO,20%
O=C(O)CP(=O)(O)OC[C@H]1O[C@@H](n2cc(CCCl)c(=O)[nH]c2=O)C[C@@H]1O,cytopathic effect,23.2 µM,TK-,VERO,>25%
O=C(O[C@@H]1[C@@H](c2c(O)cc3c(c2O)C[C@@H](OC(=O)c2cc(O)c(O)c(O)c2)[C@@H](c2ccc(O)c(O)c2)O3)c2c(O)cc(O)cc2O[C@@H]1c1ccc(O)c(O)c1)c1cc(O)c(O)c(O)c1,MTT,20 µM,17 syn +,VERO,47%
C[C@@]1(CO)[C@H](O)CC[C@@]2(C)[C@H]1CC[C@H]1C[C@@H]3C[C@@]12CC[C@]3(O)CO,plaque count,0.005 µg/mL,,VERO,100%
O=C(O)CP(=O)(O)O,cytopathic effect,71.4 µM,BRAND,VERO,>25%
NC(=S)N/N=C\c1nccc2c(O)cccc12,plaque count,40 µM,PH,VERO,35%
CCOC(=O)C(C)(C)Oc1ccc(Cl)cc1,virus yield,400 µM,TYLER,HeLa,63%
O=c1c(O)c(-c2ccc(O)c(O)c2)oc2cc(O)cc(O)c12,,60 µg/mL,TK-,VERO,65%
Cc1ccccc1-n1c(O)c(N=O)c(=O)[nH]c1=S,cytopathic effect,100 µg/mL,Leningrad/248/88,VERO,50%
COC(=O)[C@H]1[C@H](O)[C@@H](C)[C@@H](O)[C@](C)(O)/C=C(\C)C2=C3C(=C(C)C(=O)c4c(O)c(c(C)c(OC(C)=O)c43)NC(=O)/C(C)=C/C=C\[C@@H](C)C(O)[C@@H](C)[C@H]1O)OCO2,plaque count,2.6 µM,,CV,0%
O=c1c2c3c(sc2nc(Nc2ccccc2)n1/N=C/c1ccc(Br)cc1)CCCC3,plaque count,0.3 µg/mL,,VERO,30%
Cc1ccccc1-n1c(O)c(N=O)c(=O)[nH]c1=O,cytopathic effect,100 µg/mL,Leningrad/248/88,VERO,35%
CCn1c(O)c(N=NC(N)=S)c2ccccc21,plaque count,40 µM,PH,VERO,99%
O=C(O)P(=O)(O)O,cytopathic effect,238 µM,BRAND,VERO,>25%
COc1ccc(Cn2c(O)c(N=O)c(=O)[nH]c2=O)cc1,cytopathic effect,100 µg/mL,Leningrad/248/88,VERO,45%
O=c1[nH]c(=O)n([C@H]2C[C@H](O)[C@@H](CO)O2)cc1CCCl,cytopathic effect,34.2 µM,TK-,VERO,>25%
Cn1c(O)c(N=NC(N)=S)c2ccccc21,plaque count,40 µM,PH,VERO,99%
O=C(OCc1ccccc1)P(=O)(O)OC[C@H]1O[C@@H](n2cc(CCCl)c(=O)[nH]c2=O)C[C@@H]1O,cytopathic effect,20.5 µM,TK-,VERO,>25%
NC(=S)N/N=C/c1ccc(O)cn1,plaque count,40 µM,PH,VERO,14%
Oc1cc(O)c2c(c1)O[C@H](c1ccc(O)c(O)c1)[C@H](O)[C@H]2c1c(O)cc(O)c2c1O[C@H](c1ccc(O)c(O)c1)[C@H](O)C2,MTT,200 µM,17 syn +,VERO,32%
COP(=O)(CC(=O)OC[C@H]1O[C@@H](n2cc(I)c(=O)[nH]c2=O)C[C@@H]1O)OC,cytopathic effect,198 µM,TK-,VERO,>25%
NC(=S)N/N=C\c1ncnc2nc[nH]c12,plaque count,40 µM,PH,VERO,15%
O=C(O)P(=O)(O)O,plaque count,500 µM,V8663,SIRC,>99.9%
CC(C)(C)n1c(O)c(N=O)c(=O)[nH]c1=O,cytopathic effect,100 µg/mL,Leningrad/248/88,VERO,50%

An empty or dashed field is not shown. Percent inhibition refers to the dose given; in toxicity tests it is the harm to the cells.